Drawing on ChEMBL document CHEMBL1212713, “Molecular docking and ligand specificity in fragment-based inhibitor discovery” (Nat Chem Biol, 2009), this text covers inhibition for one molecule.

Molecules are shown by their SMILES. Active and inactive are the calls of the source. No rule for the calls is given here.

This assay is described as follows: Inhibition of beta lactamase CTX-M assessed as hydrolysis of beta lactam up to 5 mM by spectrometry analysis.

Take `CC(C)OP(=O)(NCCC(=O)O)OC(C)C`: the inhibition result is “inactive”.
